Human monoclonal antibodies against the spike receptor-binding domain (heavy:light variable regions). IC50 against pseudoviruses bearing the spike of naturally observed variants; lower = stronger; >10 µg/ml means not reached at the top dose. No active / inactive call. The stated detection limit is 0.0005 µg/ml; values near or below 0.001 µg/ml lie at the floor of the assay.
B1: BD56-538 (protein)
chain 1: QVQLVQSGAEVKKPGSSVRVSCKASGGSFSSYVITWVRQAPGQGLEWMGGIIPIFGTANYAQKFQGRVTITADESTSTAYMELSSLRSEDTAVYFCARESVDTSLVGGFYYFDYWGQGTLVTVSS
chain 2: DIQMTQSPSSLSASIGDRVTITCRASQSISTYLNWYQQKPGKAPKLLIYAASHLHSGVPSRFSGSGSGTDFTLTISSLQPEDFATYYCQQSDSTPWTFGQGTKVEIQ
B2: BD56-561 (protein)
chain 1: QVQLVESGGGVVQPGRSLRLSCAASGFTFSPYGMHWVRQAPGKGLEWVAVIWSDGSNQYYADSVKGRFTISRDNSKNTLYLQLNRLRAEDTAVYFCAREDSFGYSHGDFYYYGLDVWGQGTTVTVSS
chain 2: QSVLTQPPSVSAAPGQKVTISCSGSTSNIGSNFVSWYQQLPGTPPKFLIFDNNKRPSGIPDRFSASKSATSATLAITGLQTGDEADYYCGTWDTRLSVWVFGGGTKLTVL
B3: BD56-564 (protein)
chain 1: QVQLVESGGGVVQPGRSLRLSCAASGFTFSTYAMHWVRQAPGKGLEWVAVISSDGSNKYYADSVKGRFTISRDNPKNTLFLQMNTLRAEDTSIYYCAREGGYCSGGDCYSGLGWFDPWGQGTLVTVSS
chain 2: DIQMTQSPSSLSASAGDRVTITCRASQSIISYLNWYQQKPGKAPKLLIHAASSLQSGVPSRFSGSGSGTDFTLTISSLQPEDFATYYCQQSYITPPAFGQGTRLEIK
B4: BD56-558 (protein)
chain 1: QLQLQESGPGLVKPSETLSLTCTVSGGSISRSSHYWGWIRQPPGKGLEWIGSIYYSRRSYYNPSLKSRVSISVDTSNNQFSLTLTSVTAADRAVYYCARRGGVSGWGGDDWYFDVWGRGTLVTVSS
chain 2: QSVLTQPPSVSGAPGQRVTISCTGSSSNIGTGYDVHWYQQLPGTAPKVLIYGNNNRPSGVPDRFSGSKSGTSASLAITGLQAEDEADYYCQSYDSSLSGWVFGGGTKLAVL
B5: BD56-566 (protein)
chain 1: QLQLQESGPGLVKPSETLSLTCTVSGGSISSSSYYWGWIRQPPGKGLDWIGSIYYSRKTYYNPSLKSRVTISVDTSKNQFSLTLTSVTAADRAVYYCARRGGVSGWGGDDWYFDLWGRGTLVTVSS
chain 2: QSVLTQPPSVSGAPGQRVTISCTGSSSNIGAGYDVHWYQLLPGRVPKVLIYGNNNRPSGVPDRFSGSKSGTSASLAIIGLQAEDEADYYCQSYDSSLSTWMFGGGTKLTVL
B6: BD56-514 (protein)
chain 1: EVQLVQSGAEVKKPGESLKISCKGSGYRFTSHWIGWVRQMPGKGLEWMGIIHLDDSDTRYSPSFQGLVTISVDKSISTAYLEWSSLTASDTAMYYCATSNPPGGFPEWFDPWGQGTLVTVSS
chain 2: QSALTQPASVSGSPGQSITISCTGTSSDVGGYDYVSWYQQHPGKAPKLMIFDVSKRPSGVSNRFSGSKSGNTASLTISGLQAEDEADYYCNSYTSSNIYVVFGGGTRLTVL
B7: BD56-543 (protein)
chain 1: EVQLVESGGGLVQPGGSLRLSCAASGFSFSRYDMHWVRQATGKGLEWVATIGTAGDTYYADSVKGRFTISRENAEDSVYLQMNSLRAGDTAVYYCARGGSSNWYWYFDLWGRGTLVTVSS
chain 2: DIQMTQSPSSLSASVGDRVSITCRASQSIRNSLNWYQQKPGKAPKLLIYATSNLESGVPSRFSGSGSGTDFTLTISSLQRDDFATYYCQQSYSMPPITFGQGTRLETK
B8: BD56-554 (protein)
chain 1: QITLKESGPTLVKPTQTLTLTCTFSGFSLTNSGEGVAWIRQPPGKALEWLALIYWDNDKRYSPSLKSRLTITRDTSKNQVVFRMTNMDPVDTATYYCAQTPGIDVMFESWGQGTLVTVSS
chain 2: QSALTQPASVSGSPGQSITISCTGTSTDLGSFNYVSWYLQHPGKAPKLMIYDVTNRPSGVSNRFSGSKSGNTASLTISGLQAQDEGDYYCSSYTTSSVVFGGGTKLTVL
B9: DH1111 (protein)
chain 1: EVQLLESGGGLVQPGGSLRLSCAASGFTFSSYAMSWVRQAPGKGLEWVSGISGSGITYNADSVKGRFTISRDNSKNTLYLQMNSLRAEDTAVYYCAKLAVAGGRGANYWGQGTLVTVSS
chain 2: DIQMTQSPSTLSASVGDRVTITCRASQSISSWLAWYQQKPGKAPKLLIYKASSLESGVPSRFSGSGSGTEFTLTISSLQPDDFATYYCQQYHSWWTFGQGTKVEIK
B10: BD56-547 (protein)
chain 1: QVQLVESGGGVVQPGRSLRLSCAASGFTFSSYAIHWVRQAPGKGLEWVAVISSDGSFKYFADSVKGRFSISRDNSKNTLYLQMNSLRAEDTALYYCARETGVPVTYFDYWGQGTLVTVSS
chain 2: DIQMTQSPSTLSASVGDRVTITCRASQSISGWLAWYQQKPGKAPKLLIYKASSLETGVSSRFSGSGSGTEFTLTISSLQPDDFATYYCQQYYSFWTFGQGTKVEIK
B11: BD56-557 (protein)
chain 1: QITLKESGPTLVKPTQTLTLTCTFSGFSLNTRGVCVGWIRQPPGKALEWLALICWDDDRRYSPSLKNRLTITKDTSKNHIVLTMTNMDPVDTAIYFCAYSPPDTSGWYGESIDYWGQGTLVTVSS
chain 2: SYELTQPPSVSVSPGQTARITCSGHAFPNQYAYWYQQKPGQAPVLVIYRDTERPSGIPGRFSGSSSGRTVTLTISGVQAEDEGDYYCQSADSSGVVFGGGTKLTVL
B12: BD56-529 (protein)
chain 1: EVQLVESGGGLVQPGGSLRLSCAASGFTFSNYDMHWVRQVTGKGLEWVSTIGTAGDTYYPDSVKGRFTISRENANNSLYLQMNSLRAGDTAVYYCARGDYSHYATYFYYYMDAWGKGTTVTVSS
chain 2: DIQMTQSPSSLSASVGDRVTITCRASQSIGSYLNWYQQQPGKAPKLLIYAASSLQSGVPSRFSGSGSGTDFTLTISSLQPEDFATYYCQQSYSNPPERSFGPGTKVDIK

What was measured:
Assay in all cases: pseudovirus neutralization IC50; higher = weaker neutralization
[1] = biological target: SARS-CoV-2 Omicron BA.1 spike pseudovirus
Method: (§1)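 Single-round VSV luciferase pseudovirus mixed with antibody dilutions for 1 h and put on Huh-7 cells for about a day; IC50 from the dose curve.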

[2] = biological target: SARS-CoV-2 Omicron BA.2 spike pseudovirus
Method: as §1

[3] = biological target: SARS-CoV-2 Omicron BA.2.75 spike pseudovirus
Method: as §1

[4] = biological target: SARS-CoV-2 Omicron BA.5 spike pseudovirus
Method: as §1

[5] = biological target: SARS-CoV-2 Omicron BQ.1.1 spike pseudovirus
Method: as §1

[6] = biological target: SARS-CoV-2 Omicron XBB spike pseudovirus
Method: as §1

[7] = biological target: SARS-CoV-2 early D614G spike pseudovirus
Method: as §1

Binder	pseudovirus neutralization IC50 [1] [µg/mL]	pseudovirus neutralization IC50 [2] [µg/mL]	pseudovirus neutralization IC50 [3] [µg/mL]	pseudovirus neutralization IC50 [4] [µg/mL]	pseudovirus neutralization IC50 [5] [µg/mL]	pseudovirus neutralization IC50 [6] [µg/mL]	pseudovirus neutralization IC50 [7] [µg/mL]
B1	0.00209	0.00147	0.00192	0.00314	> 10	> 10	0.00113
B2	1.43	1.24	1.5	3.08	4.53	3.68	1.55
B3	0.00344	0.00176	0.00169	0.248	0.671	2.23	0.00973
B4	> 10	0.368	> 10	> 10	> 10	> 10	0.0059
B5	2.46	0.332	2.11	> 10	> 10	> 10	0.00889
B6	1.81	1.27	1.29	1.93	> 10	> 10	0.146
B7	> 10	> 10	> 10	> 10	> 10	> 10	3.4
B8	0.00979	0.000857	0.0128	0.00146	> 10	> 10	0.00163
B9	> 10	> 10	> 10	> 10	> 10	> 10	1.16
B10	7.04	6.57	8.54	7.13	4.79	5.96	1.53
B11	> 10	> 10	> 10	> 10	> 10	> 10	0.432
B12	> 10	> 10	> 10	> 10	> 10	> 10	> 10

— the supplement of paper PMC9931576
